Pooled drug test results. Numbers come from NIAID ChemDB, via PubChem.

Common to all: growth or infection tests; species: Hepatitis C virus; measure: EC90

Blank or dashed fields: not listed here. Conditions beyond the fields shown may differ between rows. ECn: concentration that inhibits the pathogen or its effect by n%.

structure	cell line	strain or isolate	read by	result
O=C(O)c1c(-c2ccc(Cl)cc2)nc(SCc2nc3ccccc3[nH]2)[nH]c1=O	Huh7		replicon / PCR	0.879 µM
O=c1[nH]c(=O)n([C@H]2C[C@H](O)[C@@H](CO)O2)cc1F	Huh7		PCR	>100 µM
CC(C)n1c(/C=C/[C@@H](O)C[C@@H](O)CC(=O)O)c(-c2ccc(F)cc2)c2ccccc21	Huh 9-13		luciferase / replicon	17 µM
N#Cc1c(-c2ccc(F)cc2)nc(NCc2nc3ccccc3[nH]2)[nH]c1=O	Huh7		replicon / PCR	0.654 µM
CN(Cc1cnc2nc(N)nc(N)c2n1)c1ccc(C(=O)N[C@@H](CCC(=O)O)C(=O)O)cc1	Huh7		PCR	>100 µM
C[C@@]1(O)[C@H](O)[C@@H](CO)O[C@H]1n1cnc2c(N)ncnc21	Huh7	CLONE A S282T	replicon	>100 µM
N#Cc1c(-c2ccccc2)nc(SCc2nc3ccccc3[nH]2)[nH]c1=O	Huh7		replicon / PCR	0.744 µM
Nc1ccn([C@@H]2O[C@H](CO)[C@@H](O)/C2=C/F)c(=O)n1	Huh7		PCR	>100 µM
O=C(O)c1c(-c2ccccc2Cl)nc(SCc2nc3ccccc3[nH]2)[nH]c1=O	Huh7		replicon / PCR	0.666 µM
Nc1n[nH]c(N)n1	Huh7		PCR	>100 µM
Nc1ncnc2c1c1c(=O)[nH]c(=S)[nH]c1n2[C@@H]1O[C@H](CO)[C@@H](O)[C@H]1O	Huh7		replicon	>10 µM
O=C(O)c1c(-c2ccco2)nc(NCc2nc3ccccc3[nH]2)[nH]c1=O	Huh7		replicon / PCR	2.12 µM
CC(C)COC(=O)N[C@H](C(=O)N(C)[C@@H](CC1CC1)C(=O)NC(CC1CC1)C(=O)C(=O)NCC(=O)N[C@H](C(=O)N(C)C)c1ccccc1)C1CCCCC1				0.95 µM
O=c1cnn([C@@H]2O[C@H](CO)[C@@H](O)[C@H]2O)c(=S)[nH]1	Huh7		PCR	>100 µM
O=C(O)c1c(-c2ccc(O)cc2)nc(SCc2nc3ccccc3[nH]2)[nH]c1=O	Huh7		replicon / PCR	0.452 µM
CCOC(=O)[C@H](C)NP(=O)(OC[C@H]1O[C@@H](n2c3ncnc(N)c3c3c(N)ncnc32)[C@](C)(O)[C@@H]1O)Oc1ccccc1	Huh7		replicon	>10 µM
CCOC(=O)CCc1ccccc1OP(=O)(OC[C@H]1O[C@@H](n2cnc3c(N)nc(N)nc32)[C@](C)(O)[C@@H]1O)Oc1ccccc1CCC(=O)OCC	Huh7		PCR	>10 µM
Cc1c(-c2ccc(-c3ccccc3F)cc2)nc2ccc(F)cc2c1C(=O)O	Huh7		PCR	>100 µM
C[C@@]1(O)[C@H](O)[C@@H](CO)O[C@H]1n1c2ncnc(N)c2c2c(=O)[nH]c(=S)[nH]c21	Huh7		replicon	>10 µM
C[C@@]1(O)[C@H](O)[C@@H](CO)O[C@H]1n1cnc2c(N)ncnc21	Huh7.5	genotype 1b	luciferase / reporter gene	0.5655 µM

2 of the rows above, restated:

structure,cell line,strain or isolate,read by,result
Nc1n[nH]c(N)n1,Huh7,,PCR,>100 µM
C[C@@]1(O)[C@H](O)[C@@H](CO)O[C@H]1n1c2ncnc(N)c2c2c(=O)[nH]c(=S)[nH]c21,Huh7,,replicon,>10 µM